Reference: article PMC7082139, “Molecular Mechanisms of Phosphate Stress Activation of Pseudomonas aeruginosa Quorum Sensing Systems”

Columns and labels:
[1] = biological target: T1, LasR (Pseudomonas aeruginosa PAO1) (UniProt P25084); assay: EMSA; conditions: 2 uM 3-oxo-C12-HSL, without PhoB; recombinant protein; protein details: C-terminal His (pET-28b); label: biotin 3'-end
T1 sequence (looked up, limits assumed): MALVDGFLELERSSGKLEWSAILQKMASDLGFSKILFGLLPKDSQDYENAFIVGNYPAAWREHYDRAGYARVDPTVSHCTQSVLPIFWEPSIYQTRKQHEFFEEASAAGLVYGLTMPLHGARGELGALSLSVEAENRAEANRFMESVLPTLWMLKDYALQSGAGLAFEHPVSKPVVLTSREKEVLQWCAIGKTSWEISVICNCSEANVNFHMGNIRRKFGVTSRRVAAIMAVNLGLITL

[2] = biological target: T2, PhoB (Pseudomonas aeruginosa PAO1) (UniProt P23620); assay: EMSA; conditions: positive control; LightShift chemiluminescent EMSA kit; 50 ng/ul poly(dIdC), 10 nM biotin-labeled DNA, 20 min at room temperature; 5% native TBE PAGE; proteins stored in 50 mM NaH2PO4; recombinant protein; protein details: C-terminal His (pET-28b, NcoI-XhoI); label: biotin 3'-end
T2 sequence (looked up, limits assumed): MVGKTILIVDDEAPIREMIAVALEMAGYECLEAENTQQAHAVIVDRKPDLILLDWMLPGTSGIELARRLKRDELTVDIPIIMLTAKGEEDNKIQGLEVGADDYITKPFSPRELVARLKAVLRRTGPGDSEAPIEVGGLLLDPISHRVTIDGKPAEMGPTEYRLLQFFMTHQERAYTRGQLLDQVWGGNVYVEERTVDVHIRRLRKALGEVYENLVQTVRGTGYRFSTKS

Sequence | binding result [1] | binding result [2]
TGCTCTGATCTTTTCGGACGTTTCTTCGAGCCTAGCAAGGGTCCGGGTTCACCGAAATCTATCTCATTTGCTAGTTATAAAATTATGAAATTTGCATAAATTCTTCAGCTTCCTATTTGGAGGAAGTGAAG (double strand) [lasI promoter] | binds | –
TATCCCAAAACCCCTGGTCAGCGATGACCGGGGGTTTTGCTTTTGCGCGCGGAAAAAGGCGTGCTTCCTCGCTTCTTTTCTCGACTGCGAATGCCGGCGGCGACTGTCACAATTGCCCTGGAAACTACCCATCCTGCATGAAACGGATGGACGGCTACCTCCCCCAGGCGGATCGAAAACGCGCTCCAGAGGGCCTCCCGGGCCCCTCCGTGAAAGGCTGGAGCCCTTGTGTTTCCAGGCTTTTAGGGGTGTGGCAGGGCTTCTCCCAAGGCTTGCGGAAAAATGTCGGAAGGCTGATGGCATTTCATCCAACTGTCATATTCCTTTCATAGAGTCTTCATGCGGCCTGACGATACTGGCCCCCGTTCCATCCAACCCCATCCTGTCCAAGGAGCAAGGC (double strand) [pstS promoter] | – | binds

For at least one entry, the source does not settle the construct or the ends of the probe. At least one verdict rests on a figure or table, not on a statement of the authors. Where a protein sequence is shown, tags need not be part of it.
